Pooled drug test results. Numbers come from NIAID ChemDB, via PubChem.

Shared fields: tests in culture; organism: Mycobacterium tuberculosis

An empty or dashed field is not shown. ECn: concentration that inhibits the pathogen or its effect by n%. Conditions beyond the fields shown may differ between rows. A number after MIC or MFC names an inhibition level or a share of isolates. Inhibition is in % at the dose shown (toxicity tests: loss of growth or viability). MIC bound comes from a single tested concentration.

structure	method	read-out	dose	strain or isolate	value
NCC[C@H](O)C(=O)N[C@@H]1C[C@H](N)[C@@H](O[C@H]2O[C@H](CN)[C@@H](O)[C@H](O)[C@H]2O)[C@H](O)[C@H]1O[C@H]1O[C@H](CO)[C@@H](O)[C@H](N)[C@H]1O	broth dilution / resazurin	MIC	-	MDR14	2 µg/mL
COc1ccc(C(C)=NOC(=O)c2c(-c3ccccc3Cl)noc2C)cc1CN1CCOCC1	resazurin	MIC bound	-	H37Rv	>6.25 µg/mL
Nc1ncccc1/C=C/C(=O)c1ccc2c(c1)-c1ccccc1C2	-	EC50	-	H37Rv	<12.5 µg/mL
CC(C)C(OC(=O)c1cc(NC(=S)c2ccccc2)ccc1Cl)C(C)C	BACTEC	inhibition	12.5 µg/mL	H37Rv	61%
COc1ccc(OC)c(Sc2ccncc2)c1	-	inhibition	6.25 µg/mL	H37Rv	15%
Cc1coc(NS(=O)(=O)c2ccc(N=Nc3c(N)nc(N)nc3N)cc2)c1C	BACTEC	MIC bound	-	H37Rv	>12.5 µg/mL
NCC[C@H](O)C(=O)N[C@@H]1C[C@H](N)[C@@H](O[C@H]2O[C@H](CN)[C@@H](O)[C@H](O)[C@H]2O)[C@H](O)[C@H]1O[C@H]1O[C@H](CO)[C@@H](O)[C@H](N)[C@H]1O	-	MIC	-	6R	2.5 µg/mL
CC(C)(C)CC(C)(O)CN(CC(C)(O)CC(C)(C)C)C(=S)S	-	MIC	-	EMB-R	3.1 µg/mL
COc1ccccc1Sc1ncccn1	-	MIC90	-	H37Rv	>6.25 µg/mL
C[C@H]1COc2c(N3CCN(C)CC3)c(F)cc3c(=O)c(C(=O)O)cn1c23	-	MIC	-	11S	0.5 µg/mL
O=c1[nH]c(Nc2nc3ccccc3[nH]2)nc(O)c1-c1ccccc1	BACTEC	inhibition	12.5 µg/mL	H37Rv	18%
O=C1c2ccccc2OC(c2cccc(Cl)c2)C1O	-	EC50	-	-	<12.5 µg/mL
CC1CN(c2cc3c(cc2F)c(=O)c(C(=O)O)cn3-c2ccc(F)cc2F)CCN1	-	MBC	-	ATCC 35823	2 µg/mL
COc1ccc(CNCCNCc2ccc(OC(F)(F)F)cc2)c(OC)c1	-	MIC	-	-	50 µM
COc1ccc([C@@H]2CC(=O)c3c(OC)cc(OC)c([C@H]4C(=O)c5c(OC)cc(OC)cc5O[C@@H]4c4ccc(OC)cc4)c3O2)cc1	-	EC50	-	-	<12.5 µg/mL
CCCCN(CCNC[C@@H]1CC[C@H]2C[C@@H]1C2(C)C)Cc1ccccc1	-	MIC	-	-	50 µM
CNCc1cccs1.Cl	-	MIC	-	H37Rv	800 µg/mL
COc1ccc(CSc2ncccn2)cc1	-	inhibition	6.25 µg/mL	H37Rv	0%
Cc1c(NC(=O)CSC(=S)N(C)C)c(=O)n(-c2ccccc2)n1C	BACTEC	inhibition	12.5 µg/mL	H37Rv	4%
CCCCC(CC)CN1CN(CC(CC)CCCC)CC(C)(NCCNCc2ccc(OC)cc2OC)C1	-	MIC	-	-	25 µM
CCOC(=O)c1sc(N/N=C2/NC(=O)/C(=C/c3ccc([N+](=O)[O-])cc3)S2)nc1C	resazurin	MIC bound	-	H37Rv	>6.25 µg/mL
c1ccc(C(NCCNC2CCCCCCC2)c2ccccc2)cc1	-	MIC	-	-	12.5 µM
CCN(CC)CC(C)O	-	MIC	-	H37Rv	>100 µg/mL
COc1cc(/C=C2/N=C(C)N(n3c(-c4ccccc4)nc4ccccc4c3=O)C2=O)cc(OC)c1OC	BACTEC	inhibition	12.5 µg/mL	H37Rv	24%
CN(C)c1ccc(/C=C/C(=O)c2ccccn2)cc1	-	EC50	-	-	>12.5 µg/mL
CO[C@H]1/C=C/O[C@@]2(C)Oc3c(C)c(O)c4c(=O)c(c5oc6cc(N7CCN(C(C)C)CC7)cc(=O)c6nc5c4c3=C2O)NC(=O)/C(C)=C\C=C\[C@H](C)[C@H](O)[C@@H](C)[C@@H](O)[C@@H](C)[C@H](OC(C)=O)[C@@H]1C	-	MIC	-	29 (rifampin-resistant)	0.05 µg/mL
CCOc1ccc(N)cc1S(=O)(=O)O	-	MIC	-	H37Rv	>100 µg/mL
CO[C@H]1/C=C/O[C@@]2(C)Oc3c(C)c(O)c4c(O)c(c5c(c4c3C2=O)NC2(CCN(CC(C)C)CC2)N=5)=NC(=O)/C(C)=C\C=C\[C@H](C)[C@H](O)[C@@H](C)[C@@H](O)[C@@H](C)[C@H](OC(C)=O)[C@@H]1C	-	MIC	-	61 strains	0.015 µg/mL
CCOC(=O)Nc1cc(C[C@@H](C)[C@H](O)c2ccccc2)c(N)c(N)n1	-	inhibition	12.5 µg/mL	H37Rv	0%
Nc1ncccc1/C=C/C(=O)c1ccc2c(ccc3ccccc32)c1	-	EC50	-	-	<12.5 µg/mL
O=C(/C(=N/O)c1ccccc1)c1ccccc1	-	MIC	-	H37Rv	12.5 µg/mL
NC(=O)c1cnccn1	-	MIC	-	Isolate 9004 monodrug-resistant	>300 µg/mL
C[N+]12CN3CN(C1)S(=O)(=O)N(C3)C2.[I-]	BACTEC	MIC	-	H37Rv	≥12.5 µg/mL
CCCCCCC(O)CO	-	MIC	-	H37Rv	>100 µg/mL
c1ccc(C(CCNCCNC(c2ccccc2)c2ccccc2)c2ccccc2)cc1	-	MIC	-	-	25 µM
CN1CCC2CCCCN2CC1=O	BACTEC	inhibition	12.5 µg/mL	H37Rv	-7%
CCCCCCCCCN=C(N)N	-	MIC	-	H37Rv	25 µg/mL
CO[C@H]1/C=C/O[C@@]2(C)Oc3c(C)c(O)c4c(=O)c(c5oc6cc(N7CCN(CC(C)C)CC7)cc(=O)c6nc5c4c3=C2O)NC(=O)/C(C)=C\C=C\[C@H](C)[C@H](O)[C@@H](C)[C@@H](O)[C@@H](C)[C@H](OC(C)=O)[C@@H]1C	-	MIC	-	TN805	>32 µg/mL
c1ccc(C(CNCCNCC23CC4CC(CC(C4)C2)C3)c2ccccc2)cc1	-	MIC	-	-	9.4 µM
CCN(CC)Cn1c2ccccc2c2ccccc21	-	MIC	-	H37Rv	>100 µg/mL
CC[C@H]1OC(=O)[C@H](C)[C@@H](O[C@H]2C[C@@](C)(OC)[C@@H](O)[C@H](C)O2)[C@H](C)[C@@H](O[C@@H]2O[C@H](C)C[C@H](N(C)C)[C@H]2O)[C@](C)(OC)C[C@@H](C)C(=O)[C@H](C)[C@@H](O)[C@]1(C)O	-	MIC	-	ATCC 35826	8 µg/mL
CC(=O)O.CC(O)C(N)C(=O)NC(Cc1ccc(O)cc1)C(=O)NC(CO)C(=O)NC(CCCCN)C(=O)O	BACTEC	MIC bound	-	H37Rv	>12.8 µg/mL
Nc1ccc(N2CCNCC2)cc1	-	MIC	-	H37Rv	>100 µg/mL
CC[C@H]1OC(=O)[C@H](C)[C@@H](O[C@H]2C[C@@](C)(OC)[C@@H](O)[C@H](C)O2)[C@H](C)[C@@H](O[C@@H]2O[C@H](C)C[C@H](N(C)C)[C@H]2O)[C@](C)(O)C[C@@H](C)CN(C)[C@H](C)[C@@H](O)[C@]1(C)O	-	MBC	-	ATCC 35830	>8 µg/mL
COc1cc2oc(=O)ccc2cc1C1OC(=O)C2OC21C	BACTEC	inhibition	12.5 µg/mL	H37Rv	14%
COc1ccc(CCNCCNC[C@]2(C)CCC[C@]3(C)c4ccc(C(C)C)cc4CC[C@@H]23)cc1OC	-	MIC	-	-	6.25 µM
Cc1ccc(C)c(Sc2ncnc3nc[nH]c23)c1	-	MIC	-	H37Ra	>12.8 µg/mL
CO[C@H]1/C=C/O[C@@]2(C)Oc3c(C)c(O)c4c(=O)c(c5oc6cc(N7CCN(CC(C)C)CC7)cc(=O)c6nc5c4c3=C2O)NC(=O)/C(C)=C\C=C\[C@H](C)[C@H](O)[C@@H](C)[C@@H](O)[C@@H](C)[C@H](OC(C)=O)[C@@H]1C	-	MIC	-	35 (rifampin-resistant)	0.1 µg/mL
Cc1ccc(C)c(Sc2ccncc2)c1	-	MIC90	-	H37Rv	>6.25 µg/mL
O=C1NC(=O)c2cnccc21	-	MIC	-	H37Rv	100 µg/mL
CN[C@@H]1[C@H](O[C@H]2[C@H](O[C@H]3[C@H](O)[C@@H](O)[C@H](N=C(N)N)[C@@H](O)[C@@H]3N=C(N)N)O[C@@H](C)[C@]2(O)C=O)O[C@@H](CO)[C@H](O)[C@H]1O	-	MIC	-	TN3605 (W1)	>2 µg/mL
CC(=O)c1ccc(NCc2ccccc2O)cc1	-	MIC	-	H37Rv	>100 µg/mL
O=c1nc(SCc2cccc3ccccc23)c2[nH]cnc2[nH]1	-	MIC	-	H37Ra	>12.8 µg/mL
Nc1c(Cl)ccc2c1C(=O)c1ccccc1C2=O	-	MIC	-	H37Rv	>100 µg/mL
COc1ccc(CCc2cc(OC)c3ccccc3n2)cc1OC	-	MIC	-	MT4	25 µg/mL
CC(CNCC(c1ccccc1)c1ccccc1)NCCC(c1ccccc1)c1ccccc1	-	MIC	-	-	50 µM
CO[C@H]1/C=C/O[C@@]2(C)Oc3c(C)c(O)c4c(O)c(c(/C=N/N5CCN(C6CCCC6)CC5)c(O)c4c3C2=O)NC(=O)/C(C)=C\C=C\[C@H](C)[C@H](O)[C@@H](C)[C@@H](O)[C@@H](C)[C@H](OC(C)=O)[C@@H]1C	-	MIC	-	H37Rv	0.125 µg/mL
CCCCCc1cc(OC)c2ccccc2n1	-	MIC	-	MT7	21 µg/mL
NC1CCN(c2c(F)cc3c(=O)c(C(=O)O)cn(C4CC4)c3c2Cl)C1	-	MBC90	-	Drug-resistant	1 µg/mL
O=C1C(Cl)=C(Cl)C(Cl)(Cl)C(Cl)=C1Cl	-	MIC	-	H37Rv	>100 µg/mL
COC(=O)C1=C(c2cc(OC)c(OC)c(OC)c2)OC(c2ccc(OC)c(OC)c2)C1	BACTEC	MIC bound	-	H37Rv	>12.5 µg/mL
c1ccc2c(c1)CC(NCCNC13CC4CC(CC1C4)C3)C2	-	MIC	-	-	50 µM
O=[N+]([O-])c1cccc2ncccc12	-	MIC	-	H37Rv	>100 µg/mL
COC(=O)Nc1cc(Cl)c([N+](=O)[O-])c(NC(=O)OC)n1	-	EC50	-	H37Rv	>12.5 µg/mL
N[C@@H]1CONC1=O	BACTEC	MIC	-	H37Rv	≥12.8 µg/mL
N#Cc1ccc(Cl)cc1	-	MIC	-	H37Rv	>100 µg/mL
O=C1CC(c2ccccc2)Oc2c(I)cccc21	-	EC50	-	-	>12.5 µg/mL
CC(C)(C)OC(=O)NC(Cc1ccccc1)C(=O)NC(CO)C(=O)NN	BACTEC	MIC	-	H37Rv	≥12.8 µg/mL
CCOC(=O)Nc1cc(Cl)c2ncc(-c3ccc(Cl)cc3)nc2n1	-	EC50	-	H37Rv	>12.5 µg/mL
O=C1CC(c2ccc(O)cc2)Oc2ccccc21	-	inhibition	12.5 µg/mL	-	18%
C=CCN(CCNCCc1ccccc1OC)C1CCCC1	-	MIC	-	-	25 µM
C=CCNCCNCCC(c1ccccc1)c1ccccc1	-	MIC	-	-	50 µM
O=C(O)CC1(CC(=O)Nc2ccc(I)cc2)OCOC1=O	-	MIC	-	H37Rv	25 µg/mL
CC1CCC(NCCNC[C@@H]2CC[C@H]3C[C@@H]2C3(C)C)CC1	-	MIC	-	-	12.5 µM
C1=CCc2c(oc3ccccc23)C1	-	MIC	-	H37Rv	>100 µg/mL
O=C(Nc1cc(Cl)cc(NC(=O)Oc2ccccc2)n1)Oc1ccccc1	-	EC50	-	H37Rv	<12.5 µg/mL
C[N+](C)(C)CC(=O)N/N=C/c1cccc2ccccc12.[Cl-]	BACTEC	MIC	-	H37Rv	≥12.5 µg/mL
CCOC(=O)Nc1cc(NC/C(=C\O)CN(C)c2ccccc2)c([N+](=O)[O-])c(N)n1	-	inhibition	12.5 µg/mL	H37Rv	30%
CC(=O)Nc1cccc(/C=C/C(=O)c2ccccc2O)c1	-	EC50	-	-	>12.5 µg/mL
CCCC(C)C1(CC)C(=O)NC(=S)NC1=O	-	MIC	-	H37Rv	50 µg/mL
CCCCCC/C=C/CCCCCCCCCC1=CC(=O)C=C(OC)C1=O	BACTEC	MIC bound	-	H37Rv	≤128 µg/mL
CCCCN1CCCC(COC(=O)c2ccc([N+](=O)[O-])cc2)C1.Cl	-	MIC	-	H37Rv	>100 µg/mL
CC(C)CCC(=O)c1ccoc1	BACTEC	MIC bound	-	H37Rv	>12.5 µg/mL
COc1c(OC)c(C(C)C)c2c(c1C(=O)O)C(=O)OC2=O	-	MIC	-	H37Rv	>100 µg/mL
COc1cc(N=Nc2ccccc2)cc(/C=N/NC(=O)c2cccnc2)c1O	BACTEC	MIC	-	H37Rv	≥12.5 µg/mL
CCOC(=O)C(Br)CC(C)C	-	MIC	-	H37Rv	>100 µg/mL
CCCCNC(=O)OCCN=C1c2ccccc2C(Br)C(Br)c2ccccc21	BACTEC	inhibition	12.5 µg/mL	H37Rv	35%
CC(C)NCCNC[C@]1(C)CCC[C@]2(C)c3ccc(C(C)C)cc3CC[C@@H]12	-	MIC	-	-	50 µM

A second listing of 11 rows from above:

structure,method,read-out,dose,strain or isolate,value
CC(C)NCCNC[C@]1(C)CCC[C@]2(C)c3ccc(C(C)C)cc3CC[C@@H]12,-,MIC,-,-,50 µM
Nc1ccc(N2CCNCC2)cc1,-,MIC,-,H37Rv,>100 µg/mL
N[C@@H]1CONC1=O,BACTEC,MIC,-,H37Rv,≥12.8 µg/mL
CC[C@H]1OC(=O)[C@H](C)[C@@H](O[C@H]2C[C@@](C)(OC)[C@@H](O)[C@H](C)O2)[C@H](C)[C@@H](O[C@@H]2O[C@H](C)C[C@H](N(C)C)[C@H]2O)[C@](C)(O)C[C@@H](C)CN(C)[C@H](C)[C@@H](O)[C@]1(C)O,-,MBC,-,ATCC 35830,>8 µg/mL
CO[C@H]1/C=C/O[C@@]2(C)Oc3c(C)c(O)c4c(=O)c(c5oc6cc(N7CCN(CC(C)C)CC7)cc(=O)c6nc5c4c3=C2O)NC(=O)/C(C)=C\C=C\[C@H](C)[C@H](O)[C@@H](C)[C@@H](O)[C@@H](C)[C@H](OC(C)=O)[C@@H]1C,-,MIC,-,TN805,>32 µg/mL
CCCCCCC(O)CO,-,MIC,-,H37Rv,>100 µg/mL
CNCc1cccs1.Cl,-,MIC,-,H37Rv,800 µg/mL
O=c1nc(SCc2cccc3ccccc23)c2[nH]cnc2[nH]1,-,MIC,-,H37Ra,>12.8 µg/mL
c1ccc(C(CNCCNCC23CC4CC(CC(C4)C2)C3)c2ccccc2)cc1,-,MIC,-,-,9.4 µM
c1ccc(C(NCCNC2CCCCCCC2)c2ccccc2)cc1,-,MIC,-,-,12.5 µM
Cc1ccc(C)c(Sc2ncnc3nc[nH]c23)c1,-,MIC,-,H37Ra,>12.8 µg/mL